PubChem BioAssay AID624099, ICCB-Longwood | 2012
Here is an unselected part of about 21,000 deposited reagents. Of all reagents, 497 (2.4%) are marked active. 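Higher z means weaker E2 silencing; only reporter increases were scored, and knock-downs that hurt cell survival may mask genuine repressor factors.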 Entries without a mark were called inactive. Reagents against one gene are numbered here.

Test: 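Knock-downs relieving repression by E2 of an HPV18 LCR luciferase reporter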 (primary screen)
Cell system: human C33A cervical carcinoma cells (HPV-negative) stably expressing BPV1 E2 and an HPV18 LCR luciferase reporter
Reagent: siRNA pool against human genes, 40 nM
Timing: 72 h
Measured: 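HPV18 LCR reporter light per well, converted to plate-wise z-scores that exclude control wells, and averaged over triplicate plates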
Reading the numbers: mean z-score and z-score: higher = stronger reporter signal, weaker E2 silencing
Active means: 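Mean z ≥ 2 together with z ≥ 2 in two or more of the three replicates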

| target gene | reagent no. | mean z-score | z-score, replicate A | z-score, replicate B | z-score, replicate C |
| --- | --- | --- | --- | --- | --- |
| FAM20C (FAM20C golgi associated secretory pathway kinase) | 1 | 0.22 | -0.1 | 0.23 | 0.52 |
| GRIA1 (glutamate ionotropic receptor AMPA type subunit 1) | 1 | -0.41 | -0.14 | -0.48 | -0.59 |
| LOC143034 (retired record) | 1 | -0.1 | -0.21 | -0.15 | 0.05 |
| ZSWIM9 (zinc finger SWIM-type containing 9) | 1 | -0.43 | -0.36 | -0.38 | -0.56 |
| FAM193B (family with sequence similarity 193 member B) | 1 | -1.68 | -1.66 | -1.58 | -1.82 |
| FCGR1BP (Fc gamma receptor Ib, pseudogene) | 1 | 1.72 | 1.97 | 1.65 | 1.54 |
| RS1 (retinoschisin 1) | 1 | 1.69 | 1.42 | 1.92 | 1.72 |
| DGKK (diacylglycerol kinase kappa) | 1 | 0.73 | 0.94 | 0.62 | 0.62 |
| LOC388893 (retired record) | 1 | -1.02 | -1.21 | -1.26 | -0.59 |
| BIRC2 (baculoviral IAP repeat containing 2) | 1 | 0.76 | 0.76 | 0.57 | 0.95 |
| SRSF9 (serine and arginine rich splicing factor 9) | 1 | -2.05 | -2.13 | -2.05 | -1.99 |
| PLEKHH1 (pleckstrin homology, MyTH4 and FERM domain containing H1) | 1 | -0.7 | -0.8 | -0.87 | -0.43 |
| FLVCR2 (FLVCR choline and putative heme transporter 2) | 1 | -1.28 | -1.32 | -1.35 | -1.15 |
| CARHSP1 (calcium regulated heat stable protein 1) | 1 | -0.24 | -0.68 | 0.29 | -0.35 |
| FAM186A (family with sequence similarity 186 member A) | 1 | 0.1 | -0.03 | 0.14 | 0.2 |
| ESD (esterase D) | 1 | 0.1 | 0.23 | 0.02 | 0.05 |
| TRIM42 (tripartite motif containing 42) | 1 | 0.84 | 1.16 | 0.61 | 0.74 |
| HELZ2 (helicase with zinc finger 2) | 1 | 1.54 | 1.7 | 1.67 | 1.27 |
| HELZ2 (helicase with zinc finger 2) | 2 | -0.91 | -0.86 | -0.91 | -0.97 |
| LINC00319 (long independently transcribed non-coding RNA 319) | 1 | -0.51 | -0.72 | -0.53 | -0.27 |
| HLA-DQA2 (major histocompatibility complex, class II, DQ alpha 2) | 1 | -1.54 | -1.47 | -1.54 | -1.6 |

Part of the list above, showing only “z-score, replicate B”:
FCGR1BP (Fc gamma receptor Ib, pseudogene) = 1.65
RS1 (retinoschisin 1) = 1.92

More entries follow.
| target gene | reagent no. | mean z-score | z-score, replicate A | z-score, replicate B | z-score, replicate C |
| --- | --- | --- | --- | --- | --- |
| PALM (paralemmin) | 1 | -1 | -1.08 | -1.12 | -0.79 |
| ITGA8 (integrin subunit alpha 8) | 1 | 0.07 | 0.16 | 0.1 | -0.04 |
| LINC02897 (long independently transcribed non-coding RNA 2897) | 1 | 1.38 | 0.57 | 1.32 | 2.25 |
| ITPRID2 (ITPR interacting domain containing 2) | 1 | 0.57 | 1.03 | 0.38 | 0.31 |
| SGTA | 1 | 0.41 | 0.54 | 0.16 | 0.53 |
| YTHDC1 (YTH N6-methyladenosine RNA binding protein C1) | 1 | 1.41 | 1.53 | 1.17 | 1.54 |
| ERI3 (ERI1 exoribonuclease family member 3) | 1 | 0.34 | -0.05 | 0.34 | 0.74 |
| ENDOU (endonuclease, poly(U) specific) | 1 | -0.5 | -0.74 | -0.55 | -0.21 |
| VN1R2 (vomeronasal 1 receptor 2) | 1 | 1.71 | 1.88 | 1.67 | 1.58 |
| CLSPN (claspin) | 1 | -0.12 | -0.6 | -0.02 | 0.27 |
| DCHS2 (dachsous cadherin-related 2) | 1 | -0.58 | -0.51 | -0.89 | -0.32 |
| C14orf81 (retired record) | 1 | 1.72 | 1.91 | 1.68 | 1.55 |
| PXDNL (peroxidasin like) | 1 | -0.66 | -0.81 | -0.5 | -0.66 |
| TSPOAP1 (TSPO associated protein 1) | 1 | -0.01 | 0.03 | -0.06 | -0.01 |
| LOC440305 (retired record) | 1 | 0.31 | 0.15 | 0.29 | 0.51 |
| ABRA (actin binding Rho activating protein) | 1 | 1.52 | 1.38 | 1.68 | 1.5 |
| SPA17 (sperm autoantigenic protein 17) | 1 | -0.52 | -0.63 | -0.68 | -0.24 |
| PON1 (paraoxonase 1) | 1 | 0.56 | 1.13 | 0.21 | 0.35 |
